Source: US20130330358A1 (UNIVERSITY OF SOUTHERN CALIFORNIA, published 2013)

Target: T1, vIRF4^153-256 (Kaposi's-sarcoma-associated-herpesvirus …, UniProt Q2HR73 153-256)
T1 sequence: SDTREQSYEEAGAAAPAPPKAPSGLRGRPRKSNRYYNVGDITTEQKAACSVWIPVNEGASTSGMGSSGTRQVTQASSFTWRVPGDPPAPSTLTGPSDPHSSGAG
Test: ITC, titration against HAUSP TRAF domain, 20 °C

B1: HAUSP TRAF domain (HAUSP^62-205) (enzyme)
chain: DTSWRSEATFQFTVERFSRLSESVLSPPCFVRNLPWKIMVMPRFYPDRPHQKSVGFFLQCNAESDSTSWSCHAQAVLKIINYRDDEKSFSRRISHLFFHKENDWGFSNFMAWSEVTDPEKGFIDDDKVTFEVFVQADAPHGVAW
In the case of B1, the Ka is reported as 1.32e+07 M⁻¹ and the Kd is reported as 76 nM.
